Test: Toxicokinetics of unbound DON in plasma after immunisation (LC-MS/MS)
Assay type: in vivo
Settings: pig plasma; DON bolus 0.05 mg/kg at 11 weeks of age; DON-KLH = pigs immunised IM at 3 and 6 weeks, DON = control pigs

Q: With `CC1=C[C@H]2O[C@@H]3[C@H](O)C[C@](C)([C@@]2(CO)[C@H](O)C1=O)[C@]31CO1` [DON, deoxynivalenol] as the compound, how does the tmax of unbound DON read?
A: The tmax of unbound DON was 2.19 h.

— US20240024446A1 (priority 2020, published 2024)
